Data on 1 compound can be found in ChEMBL document CHEMBL1154198, “Chemical genetics of Plasmodium falciparum” (Nature, 2010).

Experiment [1] deals with Plasmodium falciparum. The experiment is described as follows: ST_JUDE: Plasmodium falciparum 3D7 EC50 (uM) as measured by SYBR green dye. It counts as functional, organism-based.
Experiment [2] deals with Plasmodium falciparum. Description: ST_JUDE: Plasmodium falciparum K1 EC50 (uM) as measured by SYBR green dye. In kind it is functional, organism-based.

For the compound `COc1ccc2c3c1O[C@H]1[C@]4(OC)CC[C@@]5(C[C@@H]4CNC(=O)/C=C/c4ccccc4[N+](=O)[O-])[C@@H](C2)N(C)CC[C@]315`, the figures for the EC50 in the experiment with Plasmodium falciparum [1] and in the experiment with Plasmodium falciparum [2] were 2.47 µM and 3.57 µM, respectively.
